Laboratory results: PubChem BioAssay AID1259414 (Drosophila RNAi Screening Center, 2018)
The screen tested about 24,000 reagents; this is a random part of those with a known target gene and a result. In the full data, about 1,210 (5%) got an active call. 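Inactive calls also include excluded dsRNAs with several or no targets, genes unexpressed in JW18, and well A1, regardless of score.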 Unmarked entries are inactive. Names joined by + are all predicted targets of the reagent.

Aim: 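Fly genes that alter Wolbachia amount inside host cells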 (primary screen)
System: Drosophila JW18 cells infected with Wolbachia
Knock-down reagent: long dsRNA against Drosophila genes, 0.25 µg dsRNA per well of a 384-well plate
Timing: 5 days
Treatment: cells persistently infected with Wolbachia before knock-down; no added drug
Measured: 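Automated imaging of bacterial rRNA staining divided by host cell count, reported as plate-normalised robust z-score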
Scale: Wolbachia per cell robust z: higher = more Wolbachia per host cell than the plate typical
Active means: 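Hit when robust z is 1.5 or more, or -1.5 or less, in at least two of three replicates; excludes dsRNAs with several or no targets, genes not expressed in JW18 and well A1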

| Gene | dsRNA | Wolbachia per cell robust z, rep 1 | Wolbachia per cell robust z, rep 2 | Wolbachia per cell robust z, rep 3 |
| --- | --- | --- | --- | --- |
| CG12229 | DRSC09868 | -0.512 | 0.77 | -0.433 |
| ddbt (deadbeat) | DRSC38857 | 0.0741 | 1.41 | 1.36 |
| CG31510 | DRSC14182 | -2.35 | 0.674 | 0.183 |
| ppk27 (pickpocket 27) | DRSC08168 | 0.155 | -3.59 | 0.558 |
| ppk27 (pickpocket 27) | DRSC22211 | -3.58 | -1.18 | -1.06 |
| CG5116 | DRSC15720 | 0.839 | -1.64 | 0.806 |
| CG40298 | DRSC22274 | -0.147 | -1.13 | -1.31 |
| ncm (nucampholin) | DRSC02179 | 7.95 (active) | -4.16 | 10.1 |
| ncm (nucampholin) | DRSC29504 | 2.37 (active) | 1.88 | -4.51 |
| Ggamma30A (G protein gamma subunit 30A) | DRSC02715 | 0.156 | 0.367 | 0.18 |
| Ggamma30A (G protein gamma subunit 30A) | DRSC03331 | -3.41 | -0.853 | -0.71 |
| CG3347 | DRSC00597 | 0.642 | -0.0561 | -0.628 |
| CG7148 | DRSC11802 | -0.28 | -0.537 | 0.193 |
| Idgf4 (Imaginal disc growth factor 4) | DRSC18675 | 0.936 | -1.06 | 0.762 |
| Idgf4 (Imaginal disc growth factor 4) | DRSC24939 | -3.22 | -0.887 | 0.0907 |
| CG12159 | DRSC06114 | -1.02 | -2.25 | -0.858 |
| Iml1 (Increased minichromosome loss 1) | DRSC08249 | -0.769 | -1.41 | -2.02 |
| Osi16 (Osiris 16) | DRSC12135 | 0.291 | -9.01 | -0.695 |
| Osi16 (Osiris 16) | DRSC21323 | 0.297 | -0.588 | 0.624 |
| Gbp2 (Growth-blocking peptide 2) | DRSC06069 | -0.981 | -5.56 | -1.34 |
| CG15282 | DRSC23090 | -0.613 | 0.834 | 0.00167 |
| CG15282 | DRSC29233 | -1.54 | 0.141 | 0.0793 |
| squ (squash) | DRSC01549 | 1.81 | 0.243 | 0.575 |
| CG14431 | DRSC17925 | 1.09 | 0.505 | -2.05 |
| CG14431 | DRSC23593 | 0.434 | 0.106 | 1.21 |
| Ir20a (Ionotropic receptor 20a) | DRSC20506 | -0.582 | 0.000994 | -1.19 |
| Jon99Ci (Jonah 99Ci) | DRSC16860 | 0.133 | 0.15 | 0.0586 |
| Jon99Ci (Jonah 99Ci) | DRSC28041 | 1.18 | -0.999 | -1.45 |
| cn (cinnabar) | DRSC07594 | 0.249 | 1.04 | 0.412 |
| Ser7 | DRSC18201 | 0.505 | -0.883 | 0.623 |
| Dd (Dullard) | DRSC20539 | -3.34 (active) | -0.705 | -2.16 |
| Dd (Dullard) | DRSC41352 | -0.23 | -1.01 | 0.638 |
| PSMG1 (Proteasome assembly chaperone 1) | DRSC12297 | -2.44 (active) | -2.91 | -1.24 |
| PSMG1 (Proteasome assembly chaperone 1) | DRSC28532 | -0.234 | -1.5 | -0.901 |
| thoc6 | DRSC10528 | 0.844 | -0.281 | 1.06 |
| fat-spondin | DRSC07617 | 0.152 | -0.804 | -7.63 |
| CG13539 | DRSC04181 | -0.667 | -0.753 | -0.389 |
| CG13539 | DRSC28683 | -0.379 | 1.23 | -0.484 |
| CG15721 | DRSC19688 | -1.95 | -1.88 | 1.34 |
| CG10344 | DRSC04066 | 0.039 | -0.92 | 0.646 |
| CG10344 | DRSC24394 | 0.0372 | -0.356 | -0.74 |
| Ubr1 (Ubr1 ubiquitin ligase) | DRSC20148 | -2.85 (active) | -6.24 | -1.69 |
| eIF3j (eukaryotic translation initiation factor 3 subunit j) | DRSC06107 | -0.883 | 0.382 | 0.433 |
| CG12439 | DRSC02168 | -4.07 | 1.08 | 1.68 |
| IFT54 (Intraflagellar transport 54) | DRSC15469 | -0.108 | -0.225 | 0.383 |
| CG8141 | DRSC16387 | -0.199 | 0.209 | 0.322 |
| Syt12 (Synaptotagmin 12) | DRSC19359 | -0.584 | -1.41 | -2.17 |

Hits, of those listed so far:
| Gene | dsRNA | Wolbachia per cell robust z, rep 1 | Wolbachia per cell robust z, rep 2 | Wolbachia per cell robust z, rep 3 |
| --- | --- | --- | --- | --- |
| ncm (nucampholin) | DRSC02179 | 7.95 (active) | -4.16 | 10.1 |
| ncm (nucampholin) | DRSC29504 | 2.37 (active) | 1.88 | -4.51 |
| Dd (Dullard) | DRSC20539 | -3.34 (active) | -0.705 | -2.16 |
| PSMG1 (Proteasome assembly chaperone 1) | DRSC12297 | -2.44 (active) | -2.91 | -1.24 |
| Ubr1 (Ubr1 ubiquitin ligase) | DRSC20148 | -2.85 (active) | -6.24 | -1.69 |

Next records follow.
| Gene | dsRNA | Wolbachia per cell robust z, rep 1 | Wolbachia per cell robust z, rep 2 | Wolbachia per cell robust z, rep 3 |
| --- | --- | --- | --- | --- |
| Had2 (beta Hydroxy acid dehydrogenase 2) | DRSC05971 | -0.00847 | -0.0642 | -2.72 |
| Had2 (beta Hydroxy acid dehydrogenase 2) | DRSC26955 | -2.24 | 0.601 | -0.134 |
| Fntb (Farnesyl transferase beta subunit) | DRSC15244 | -1.71 | 0.111 | 0.7 |
| Fntb (Farnesyl transferase beta subunit) | DRSC28158 | -2.12 | -0.326 | -0.202 |
| Zif (Zinc-finger protein) | DRSC12514 | 0.715 | -0.423 | 1.17 |
| CR41501 (pseudo) | DRSC38861 | -5.79 | -0.0311 | -0.468 |
| CG9568 | DRSC03265 | -0.798 | -0.878 | -1.93 |
| CG42585 + CG31835 | DRSC28807 | 0.467 | 0.54 | 1.66 |
| Pcyt1 (Phosphocholine cytidylyltransferase 1) | DRSC08157 | -1.16 | -0.39 | -0.523 |
| Pcyt1 (Phosphocholine cytidylyltransferase 1) | DRSC27869 | 0.337 | 0.0846 | -0.848 |
| CG6465 | DRSC16046 | -0.604 | -1.15 | -0.908 |
| CG6465 | DRSC25671 | -1.12 | 0.281 | -1.61 |
| Cyt-c1L (Cytochrome c1-like) | DRSC14860 | -3.35 | -0.184 | 0.927 |
| Cyt-c1L (Cytochrome c1-like) | DRSC22096 | -0.357 | 0.599 | 0.224 |
| Cyt-c1L (Cytochrome c1-like) | DRSC28229 | 0.686 | 0.589 | 1.13 |
| not (non-stop) | DRSC11378 | -1.98 | 0.801 | 0.463 |
| sno (strawberry notch) | DRSC20378 | 1.22 | -4.61 | 0.897 |
| CG14598 | DRSC12541 | 0.196 | -0.622 | 0.587 |
| CG14598 | DRSC30074 | -0.0276 | -0.709 | -0.15 |
| Obp50d (Odorant-binding protein 50d) | DRSC05483 | 0.453 | 0.99 | 1.24 |
| CG30158 | DRSC04956 | 0.363 | 0.822 | -0.0153 |
| CG30158 | DRSC04974 | -0.622 | -6.32 | -6.09 |
| CG30158 | DRSC04975 | 0.45 | -1.38 | 0.236 |
| CG30158 | DRSC05012 | -1.18 | 0.439 | 0.568 |
| CG13005 | DRSC19524 | 0.0777 | 1.22 | 0.364 |
| Not3 (CCR4-NOT transcription complex subunit 3) | DRSC04908 | 0.676 | 0.272 | 1.15 |
| Not3 (CCR4-NOT transcription complex subunit 3) | DRSC27324 | 1.42 | 0.0357 | 0.783 |
| CG30273 | DRSC22059 | -0.886 | 0.00607 | -0.106 |
| CG30273 | DRSC25520 | 0.0429 | -0.0436 | -0.517 |
| CG11570 | DRSC09844 | 0.0164 | 0.323 | 0.358 |
| CG17475 | DRSC15238 | 0.547 | -0.729 | 0.83 |
| CG17475 | DRSC27674 | 0.223 | -1.13 | -1.46 |
| Lst (Limostatin) | DRSC07146 | -2.8 | 0.324 | -0.249 |
| Lst (Limostatin) | DRSC29304 | -2.24 | 0.654 | -0.209 |
| phyl (phyllopod) | DRSC07663 | 1.17 | 0.444 | -2.36 |
| phyl (phyllopod) | DRSC24829 | -0.103 | -2.37 | -1.37 |
| Cdc7 (Cdc7 kinase) | DRSC18429 | 0.0495 | -0.388 | -3.41 |
| Cdc7 (Cdc7 kinase) | DRSC27819 | -0.372 | 1.18 | 1 |
| CG42826 | DRSC10682 | 0.294 | -3.46 | -0.528 |
| TTLL15 (Tubulin tyrosine ligase-like 15) | DRSC15543 | 0.666 | 1.02 | 0.939 |
